The values below come from patent publication US7279172B2, “Treatment of autoimmune conditions with copolymer 1 and related copolymers” (priority 1998, dated 2007).

This assay concerns HLA-DR1, HLA-DR2 and HLA-DR4. It counts as binding, human. Conditions: pH 5.
“poly[L-Tyr^0.136, L-Glu^0.21, L-Ala^0.648] [SD-1690-TGA]”: the “inhibition of the polypeptide's binding to HLA-DR by superantigens SEA, SEB, TSST-1 (in words)” value is on record as “inhibited more significantly by the superantigens”. The same measure for “poly[L-Tyr^0.102, L-Ala^0.542, L-Lys^0.353] [SD-1691-TAL]”: “only inhibited by the superantigens at high molar ratios”; for “poly[L-Glu^0.153, L-Ala^0.479, L-Lys^0.365] [SD-1689-GAL]”: “inhibited more significantly by the superantigens”.
